Laboratory results from patent US20070010489A1 (priority 2002, published 2007).

How the values were obtained:
[1] = system: recombinant HIV-1 46I/47V/50V; assay type: cell-based; conditions: mutant 46I/47V/50V
[2] = system: recombinant HIV-1 10I/48V/54V/82A; conditions: mutant 10I/48V/54V/82A
[3] = system: recombinant HIV-1 8K/46I/90M; assay: Cross-Resistance Profile Assay, 8K/46I/90M; assay type: cell-based; conditions: mutant 8K/46I/90M
[4] = system: recombinant HIV-1 10F/46I/71V/82T/90M; assay: Cross-Resistance Profile Assay, 10F/46I/71V/82T/90M; assay type: cell-based; conditions: mutant 10F/46I/71V/82T/90M
[5] = system: recombinant HIV-1 10R/46I/82T/84V; assay: Cross-Resistance Profile Assay, 10R/46I/82T/84V; conditions: mutant 10R/46I/82T/84V
[6] = system: recombinant HIV-1 46I/84A; assay: Cross-Resistance Profile Assay, 46I/84A; conditions: mutant 46I/84A
[7] = system: recombinant HIV-1 30N/50S/82I/88D; conditions: mutant 30N/50S/82I/88D
[8] = system: recombinant HIV-1 54V/71V/82S; assay: Cross-Resistance Profile Assay, 54V/71V/82S; conditions: mutant 54V/71V/82S
[9] = system: recombinant HIV-1 48V/54V/71V/82S; assay type: cell-based; conditions: mutant 48V/54V/71V/82S

Compound: CCOC(=O)C(C)NP(=O)(COc1ccc(CC(NC(=O)OC2COC3OCCC23)C(O)CN(CC(C)C)S(=O)(=O)c2ccc(OC)cc2)cc1)Oc1ccccc1 (stereo not drawn) [GS-16571]
- Fold Change in EC50 Relative to WT HIV-1 [1]: 0.8
- Fold Change in EC50 Relative to WT HIV-1 [2]: 0.3
- Fold Change in EC50 Relative to WT HIV-1 [3]: 1.8
- Fold Change in EC50 Relative to WT HIV-1 [4]: 0.8
- Fold Change in EC50 Relative to WT HIV-1 [5]: 0.6
- Fold Change in EC50 Relative to WT HIV-1 [6]: 1
- Fold Change in EC50 Relative to WT HIV-1 [7]: 0.7
- Fold Change in EC50 Relative to WT HIV-1 [8]: 0.6
- Fold Change in EC50 Relative to WT HIV-1 [9]: 0.2
